Laboratory results as given in patent US20170198014A1, “POLYPEPTIDES AND THEIR USE FOR TREATING INFLUENZA” ([…] ITS CENTER FOR COMMERCIALIZATION, priority 2014, published 2017).

What was measured:
[1] = target: H3 (A/Hong Kong/1/1968) (Influenza A virus, UniProt Q91MA7); conditions: read-out: affinity constant via yeast surface display
[2] = target: HA of H3N2 A/Hong Kong/1/1968 (Influenza A virus, UniProt Q91MA7); conditions: read-out: Kd (binding constant)
[3] = target: H1N1 A/New Caledonia/20/1999 (Influenza A virus, UniProt Q6WG00); conditions: read-out: Kd (binding constant)

Row | Substance | Kd [1] [nM] | Kd [2] [nM] | Kd [3] [nM]
1 | GIVNVPN(P/C)NTTKYQQLARSAIAVYNYHQNAHLEFVENLN(V/C)KEQIAGKTMYYITLAATDDAGKKKIYKAKVGVVESAGWEGVEEFKLV [52solo2] | 1 | – | –
2 | GIVNVPNCNTTKYQQLARTAVAIYNYHEQAHLTFVENLNCKEQLGEGDYYYITLAATDDAGKKAIYEAKIGVVESAGWTGVEEFKLV [Hsc1] | – | 31.2 | 1120
